A mixed list of measured activities; the numbers were collected in NIAID ChemDB.

All rows: cytotoxicity tests; cells: CEM; measure: CC50

Lines come from different laboratories, so protocols vary. Two numbers with a dash give a range or band. An empty or dashed field is not shown. CCn is the concentration with n% toxicity to the cells.

compound,method,result
COC(=O)[C@H](C)NP(=O)(OC[C@@H]1C=C[C@H](n2cnc3c(=O)[nH]c(N)nc32)C1)Oc1ccccc1,,123 µM
O=c1[nH]c(=O)n(C[C@H]2CCC[C@H]2CO)cc1I,,>100 µg/mL
COc1cc(Cc2cnc(/N=C3\C(=O)N(CN4CCNCC4)c4ccc(C)cc43)nc2N)cc(OC)c1OC,,89.2 µM
CN(C)CCCNC(=O)c1ccccc1SSc1ccccc1C(=O)NCCCN(C)C,,25 µM
COc1cc(Cc2cnc(/N=C3\C(=O)N(CN4CCN(c5cccc(C(F)(F)F)c5)CC4)c4ccc(C)cc43)nc2N)cc(OC)c1OC,,118 µM
O=c1ccn(C[C@H]2C[C@H]2[C@H](O)CO)c(=O)[nH]1,,>100 µM
Cc1occc1C(=S)Nc1ccc(Cl)c(OCCC(C)C)c1,,>100 µg/mL
COc1cc(Cc2cnc(/N=C3\C(=O)N(CN4CCN(c5ccccc5)CC4)c4ccc(C)cc43)nc2N)cc(OC)c1OC,,121 µM
C1CNC2(C1)C1CC3CC(C1)CC2C3,,100 µg/mL
COc1ccc(C)cc1CS(=O)(=O)c1cccc[n+]1[O-],,70 µg/mL
Cc1ccccc1C(=S)Nc1ccc(Cl)c(C(=O)OC(C)C)c1,,5.8 µg/mL
OC[C@H]1O[C@@H](c2ccccc2)[C@H](O)[C@@H]1O,,>200 µg/mL
COc1ccc2c(c1)OCC1c3cc(O)c(OCc4cccc5ccccc45)cc3OC21,,38.5 µM
O=C(O)C[C@H](CC1CCCCC1)NC(=O)c1ccccc1SSc1ccccc1C(=O)N[C@H](CC(=O)O)CC1CCCCC1,,42 µM
O=C(Nc1ccc(Cl)c(C(=O)OC2CCCCC2)c1)c1ccccc1F,,33 µg/mL
Cc1ccnc2c1N(C(=O)CN1CCN(c3cc4c(cc3F)c(=O)c(C(=O)O)cn4C3CC3)CC1)C(=O)c1cccnc1N2C1CC1,XTT,>200 µM
NC1=NS(=O)(=O)N(Cc2ccccc2)c2nc[nH]c21,,91.3 µg/mL
CCC(CC)OC(=O)c1cc(NC(=O)c2ccccc2N)ccc1Cl,,25 µg/mL
O=S(=O)(Cc1ccccc1I)c1cccc[n+]1[O-],,30 µg/mL
NCC1CC12C1CC3CC(C1)CC2C3,,14 µg/mL
Nc1ncnc2c1ncn2C/C=C/CN1C(=O)c2ccccc2C1=O,cell count,>50 µM
Cc1sccc1C(=O)Nc1ccc(Cl)c(C(=O)OC2CCCCC2)c1,,6.5 µg/mL
Cc1ccc(C)c(CS(=O)(=O)c2cccc[n+]2[O-])c1,,31 µg/mL
CC(C)(C)OC(=O)[C@H](CCC(N)=O)NC(=O)c1ccccc1SSc1ccccc1C(=O)N[C@@H](CCC(N)=O)C(=O)OC(C)(C)C,,91 µM
Nc1nc2c(ncn2[C@@H]2C=C[C@H](CO)C2)c(=O)[nH]1,,>100 µM
CC1=C(C(=O)Nc2ccc(Cl)c(/C=N/OC(C)(C)C)c2)SCCO1,,8.5 µg/mL
O=c1[nH]c(=O)n([C@H]2O[C@@H](CO)[C@H](O)[C@@H]2F)cc1/C=C/Br,,>100 µM
NC/C=C/Cn1cc(F)c(=O)[nH]c1=O,cell count,12.6 µM
O=[N+]([O-])c1ccc[n+]([O-])c1SCc1ccccc1,,30 µg/mL
CC(C)NS(=O)(=O)c1ccc(NC(=O)c2ccccc2SSc2ccccc2C(=O)Nc2ccc(S(=O)(=O)NC(C)C)cc2)cc1,,38 µM
Cc1cn([C@@H]2O[C@H](C(CO[Si](C)(C)C(C)(C)C)O[Si](C)(C)C(C)(C)C)C3(OS(=O)(=O)C=C3N)[C@H]2O[Si](C)(C)C(C)(C)C)c(=O)[nH]c1=O,,>136 µM
COc1ccc2ccc3c(c2c1)OC1(CCN(Cc2ccc(C#N)cc2)CC1)NC3=O,MTT,1 µM
CO/N=C/c1cc(NC(=O)c2ccoc2C)ccc1OC,,>100 µg/mL
O=c1[nH]cnc2c1ncn2C[C@H]1C[C@H]1CO,,>100 µM
C=CCOc1cc(NC(=S)c2ccoc2C)ccc1OC,,>100 µg/mL
CNC1CC12C1CC3CC(C1)CC2C3,,75 µg/mL
CCCCCCCCCCCCCCCCOCCCOP(=O)(O)COCCn1cnc2c(=O)[nH]c(N)nc21,neutral red,0.43 µM
CC[C@@H](C)[C@@H](NC(=O)c1ccccc1SSc1ccccc1C(=O)N[C@@H](C(=O)O)[C@H](C)CC)C(=O)O,,113 µM
COc1ccc2c(c1)OC[C@@H]1c3cc(O)c(OCc4ccccc4)cc3O[C@H]21,,40.5 µM
O=C(Nc1ccc(Cl)cc1)N1CCCC12C1CC3CC(C1)CC2C3,,3.4 µg/mL
CCCC[C@@H](CCC(=O)O)NC(=O)c1ccccc1SSc1ccccc1C(=O)N[C@@H](CCCC)CCC(=O)O,,25 µM
Nc1nc(NC2CC2)c2ncn([C@H]3C=C[C@@H](CO)C3)c2n1,,97 µM
C/C=C/COc1cc(NC(=S)c2ccn(C)c2C)ccc1Cl,,5.2 µg/mL
Cc1cn([C@@H]2O[C@H](C3CO[Si](C(C)C)(C(C)C)O[Si](C(C)C)(C(C)C)O3)C3(OS(=O)(=O)C=C3N)[C@H]2O)c(=O)[nH]c1=O,,11.4 µM
NC/C=C/Cn1cnc2c(N)ncnc21,cell count,3.1 µM
Cc1occc1C(=S)Nc1ccc(Cl)c(/C=N/OC(C)C)c1,,3.3 µg/mL
COc1cc(Cc2cnc(/N=C3\C(=O)N(CN4CCN(c5ccc(Cl)cc5)CC4)c4ccc(C)cc43)nc2N)cc(OC)c1OC,,36.1 µM
COc1ccccc1C(=S)Nc1ccc(Cl)c(C(=O)OC2CCCCC2)c1,,12 µg/mL
O=C1c2ccccc2C(=O)N1C/C=C\Cn1ccc(=O)[nH]c1=O,cell count,>50 µM
O=c1[nH]c(=O)n([C@H]2CCC[C@@H]2CO)cc1I,,>100 µg/mL
CO[C@H]1[C@H]2O[Si](C(C)C)(C(C)C)O[Si](C(C)C)(C(C)C)OC[C@@H]2O[C@@H]1c1ccccc1,,20 µg/mL
Cc1c(C(=S)Nc2ccc(Cl)c(/C=N/OC(C)(C)C)c2)ccn1C,,6.5 µg/mL
Cc1ccc(C)c(CS(=O)c2ccc(Cl)c[n+]2[O-])c1,,31 µg/mL
Cc1sccc1C(=O)Nc1ccc(Cl)c(OCC2CCCC2)c1,,5 µg/mL
Cc1cn([C@@H]2CC[C@H](COC(=O)CCCCCCCCC(=O)OC[C@H]3O[C@@H](n4cc(C)c(=O)[nH]c4=O)C[C@@H]3F)O2)c(=O)[nH]c1=O,,>1 µM
O=C1c2ccccc2C(=O)N1CC1OC1CBr,cell count,9.2 µM
Cc1ccc(C)c(C(Cl)S(=O)(=O)c2cc(C)cc[n+]2[O-])c1,,>4 µg/mL
NC/C=C\Cn1cnc2c(N)ncnc21,cell count,5.7 µM
Nc1nc2c(ncn2[C@H]2C=C[C@@H](CO)C2)c(=O)[nH]1,,189 µg/mL
C/C=C/COc1cc(NC(=O)c2ccsc2C)ccc1Cl,,87 µg/mL
Cc1ccc(C)c(CS(=O)(=O)c2cccc[n+]2[O-])c1,,31 µg/mL
O=C(NC(C(=O)O)c1ccccc1)c1ccccc1SSc1ccccc1C(=O)NC(C(=O)O)c1ccccc1,,>100 µM
CC1=C(C(=S)Nc2ccc(Cl)c(/C=N/OC(C)(C)C)c2)CCO1,,11 µg/mL
Cc1ccc(C)c(C(C)S(=O)(=O)c2ccc(C)c[n+]2[O-])c1,,≥100 µg/mL
COc1cc(Cc2cnc(/N=C3\C(=O)N(CN4CCN(c5ccc([N+](=O)[O-])cc5)CC4)c4ccc(C)cc43)nc2N)cc(OC)c1OC,,37.4 µM
Cc1sccc1C(=S)Nc1ccc(Cl)c(OCCC(C)C)c1,,>100 µg/mL
NC1=NS(=O)(=O)N(Cc2ccccc2)c2nc(Cc3ccccc3)[nH]c21,,9.6 µg/mL
Cc1sccc1C(=S)Nc1ccc(Cl)c(C(=O)OC(C)C)c1,,5.9 µg/mL
O=C(O)n1sc2ccccc2c1=O,,>100 µM
O=c1[nH]c(=O)n([C@H]2CS[C@@H](CO)O2)cc1/C=C/Br,,>100 µM
O=c1ccn(C[C@H]2CCC[C@H]2CO)c(=O)[nH]1,,>100 µg/mL
COc1ccc2c(c1)OCC1c3cc(O)c(OCC(C)C)cc3OC21,,24.5 µM
Nc1nc2c(ncn2COC(CO)CO)c(=O)[nH]1,,35–72 µM
Nc1ccc(C[C@H](NC(=O)c2ccccc2SSc2ccccc2C(=O)N[C@@H](Cc2ccc(N)cc2)C(=O)O)C(=O)O)cc1,,15 µM
COc1ccccc1C(=O)Nc1ccc(Cl)c(C(=O)OC2CCCC2)c1,,>100 µg/mL
Nc1ccn(C[C@H]2C[C@H]2CO)c(=O)n1,,>100 µM
CCn1cc(C(=O)O)c(=O)c2cc(F)c(N3CCN(CC(=O)N4C(=O)c5cccnc5N(C5CC5)c5nccc(C)c54)CC3)cc21,XTT,>200 µM
COc1ccccc1C(=S)Nc1ccc(Cl)c(C(=O)OC(C)C)c1,,27 µg/mL

A second listing of 11 rows from above:

OC[C@H]1O[C@@H](c2ccccc2)[C@H](O)[C@@H]1O ; result: >200 µg/mL
O=C(O)C[C@H](CC1CCCCC1)NC(=O)c1ccccc1SSc1ccccc1C(=O)N[C@H](CC(=O)O)CC1CCCCC1 ; result: 42 µM
Cc1ccc(C)c(CS(=O)c2ccc(Cl)c[n+]2[O-])c1 ; result: 31 µg/mL
C/C=C/COc1cc(NC(=O)c2ccsc2C)ccc1Cl ; result: 87 µg/mL
Nc1ccc(C[C@H](NC(=O)c2ccccc2SSc2ccccc2C(=O)N[C@@H](Cc2ccc(N)cc2)C(=O)O)C(=O)O)cc1 ; result: 15 µM
O=c1[nH]c(=O)n([C@H]2CCC[C@@H]2CO)cc1I ; result: >100 µg/mL
Cc1cn([C@@H]2O[C@H](C3CO[Si](C(C)C)(C(C)C)O[Si](C(C)C)(C(C)C)O3)C3(OS(=O)(=O)C=C3N)[C@H]2O)c(=O)[nH]c1=O ; result: 11.4 µM
COc1cc(Cc2cnc(/N=C3\C(=O)N(CN4CCNCC4)c4ccc(C)cc43)nc2N)cc(OC)c1OC ; result: 89.2 µM
COc1ccccc1C(=O)Nc1ccc(Cl)c(C(=O)OC2CCCC2)c1 ; result: >100 µg/mL
COc1cc(Cc2cnc(/N=C3\C(=O)N(CN4CCN(c5ccccc5)CC4)c4ccc(C)cc43)nc2N)cc(OC)c1OC ; result: 121 µM
NC1=NS(=O)(=O)N(Cc2ccccc2)c2nc[nH]c21 ; result: 91.3 µg/mL